SMILES strings stand for the structures. The list shows a part of the results, in another mix than the full data. Results with a measured potency or affinity are listed apart. Calls of active or inactive are those of the source.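 The calls were made as follows: active = viability at or below 80% at any tested concentration, marking the compound as toxic; inactive = the rest.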

A short description of this assay: viability loss in THP-1 monocytes – THP-1 cells, cytotoxicity control for Vif-APOBEC3G degradation inhibitor project, dose response (AID 1117359). The note with it: THP-1 viability, CellTiter-Glo luminescence, 72 h; at 40 µM (top of the series).
In general, viability refers to a per cent measure of how many cells are alive, often set against a control. With `O=[N+]([O-])c1cccc(NC2=NCC(CBr)S2)c1` (stereo unspecified), the viability is inactive: 83%.

The values are drawn from PubChem BioAssay AID1117359 (Southern Research Institute, 2015).
